Measured values from several laboratories, pooled; numbers as filed in NIAID ChemDB.

All rows: tests in culture; organism: Candida albicans

A number after MIC or MFC names an inhibition level or a share of isolates. Blank or dashed fields: not listed here. ECn: concentration that inhibits the pathogen or its effect by n%. Two numbers with a dash give a range or band. Conditions beyond the fields shown may differ between rows.

| compound | endpoint | strain | read by | changes | value |
|---|---|---|---|---|---|
| C=C(C)C1CCC(C)CC1O | MIC50 | ATCC 90028 | broth dilution |  | >8000 µg/mL |
| CC1=COC2OC3(C)CCC4[C@H](C)CCC1[C@@]24O3 | MIC | ATCC 90028 |  |  | >50 µg/mL |
| CCC(C)CC(C)CCCCCCCCC(=O)N[C@H]1C[C@@H](O)[C@H](NCCN)NC(=O)[C@@H]2[C@@H](O)CCN2C(=O)[C@H]([C@H](O)CCN)NC(=O)[C@H]([C@H](O)[C@@H](O)c2ccc(O)cc2)NC(=O)[C@@H]2C[C@@H](O)CN2C(=O)[C@H]([C@@H](C)O)NC1=O | MIC50 |  |  |  | 0.03–0.5 µg/mL |
| Clc1ccc(COC(Cn2ccnc2)c2ccc(Cl)cc2Cl)c(Cl)c1 | MIC | 505 |  |  | 4 µg/mL |
| COc1ccc2c(Cc3cccc([N+](=O)[O-])c3)c3[n+](cc2c1OC)CCc1cc2c(cc1-3)OCO2.[Br-] | MIC80 | Clinical isolate | broth dilution | Fluconazole-resistant | >64 µg/mL |
| Clc1ccc(-n2ncc(C(c3ccccc3)n3ccnc3)c2-c2ccccc2)c(Cl)c1 | MIC |  |  |  | ≥100 µM |
| CCCCCCCCCCCOCC(=O)O | MIC |  |  |  | 500 µM |
| C[C@H]1[C@H](O)[C@@H](C)/C=C/C=C/C=C/C=C/C=C/C=C/C=C/[C@H](O[C@@H]2O[C@H](C)[C@@H](O)[C@H](N)[C@@H]2O)C[C@@H]2O[C@](O)(C[C@@H](O)C[C@@H](O)CC[C@H](O)[C@@H](O)C[C@@H](O)CC(=O)O[C@H]1C)C[C@H](O)[C@H]2C(=O)O | MIC | 505 |  |  | <2 µg/mL |
| CC(C)=CCCC(C)CCO | MIC50 | ATCC 90028 | broth dilution |  | 4000 µg/mL |
| COc1ccc2c(Cc3ccccc3F)c3[n+](cc2c1OC)CCc1cc2c(cc1-3)OCO2.[Br-] | MIC80 | Clinical isolate | broth dilution | Fluconazole-resistant | 64 µg/mL |
| CCC(C)n1ncn(-c2ccc(N3CCN(c4ccc(OC[C@H]5CO[C@](Cn6cncn6)(c6ccc(Cl)cc6Cl)O5)cc4)CC3)cc2)c1=O | MIC90 |  |  |  | 0.016–0.06 µg/mL |
| CC(=O)N1C(=O)SC[C@H]1C(=O)/C=C/C[C@H]1CC[C@H](C)/C=C\CC/C(C)=C\C(=O)O1 | MIC | ATCC 10231 |  |  | 17.8 µM |
| c1ccc(-c2c(C(c3ccccc3)n3ccnc3)cnn2-c2ccccc2)cc1 | MBC |  |  |  | 100 µM |
| COc1cc(C[C@H](C)[C@H](C)Cc2ccc(O)c(O)c2)ccc1O | MIC50 | CCC 130-2000 | broth dilution |  | 62.5 µg/mL |
| COc1ccc2c(c1OC)C[N+]1(Cc3ccccc3Cl)CCc3cc4c(cc3C1C2)OCO4.[Br-] | MIC80 | Clinical isolate | broth dilution | Fluconazole-resistant | >64 µg/mL |
| CCO[C@@H]1O[C@@H]2O[C@]3(C)CC[C@H]4[C@H](C)CC[C@@H]([C@H]1C)C24OO3 | MIC | ATCC 90028 |  |  | >50 µg/mL |
| Clc1ccc(-c2c(C(c3ccccc3)n3ccnc3)cnn2-c2ccc(Cl)cc2Cl)cc1 | MIC |  |  |  | 11.1 µM |
| CC(C)[C@@H]1CC[C@@H](C)C[C@H]1O | MIC99.9 | ATCC 90028 | broth dilution |  | >8000 µg/mL |
| CCCCCOc1ccc(-c2cc(-c3ccc(C(=O)N[C@H]4C[C@@H](O)[C@@H](O)NC(=O)[C@@H]5[C@@H](O)[C@@H](C)CN5C(=O)[C@H]([C@H](O)CC(N)=O)NC(=O)[C@H]([C@H](O)[C@@H](O)c5ccc(O)c(OS(=O)(=O)O)c5)NC(=O)[C@@H]5C[C@@H](O)CN5C(=O)[C@H]([C@@H](C)O)NC4=O)cc3)no2)cc1 | MIC90 |  |  |  | 0.015 µg/mL |
| O=C(NCCc1ccc2c(c1)OCO2)Nc1ccccc1Cl | MIC80 | Clinical isolate | broth dilution | Fluconazole-resistant | >64 µg/mL |
| Cc1ccc(C(C)C)cc1 | MIC50 | ATCC 90028 | broth dilution |  | 2000 µg/mL |
| C=C1C(=O)O[C@@H]2O[C@]3(C)CC[C@H]4[C@H](C)CC[C@@H]1C24OO3 | EC50 | ATCC 90028 |  |  | >50 µg/mL |
| CC(Cc1ccc(C(C)(C)C)cc1)CN1CC(C)OC(C)C1 | MIC | DAY364 (genotype CNB1/CNB1) |  |  | ≤0.01 µg/mL |
| Clc1ccc(C(Cn2ccnc2)OCc2csc3c(Cl)cccc23)c(Cl)c1 | MIC | 81 strains |  |  | 1.14 µg/mL |
| Clc1ccc(-c2c(C(c3ccccc3)n3ccnc3)cnn2-c2ccc(Cl)cc2)cc1 | MIC |  |  |  | 66.6 µM |
| CCCCCOc1ccc(-c2ccc(-c3ccc(C(=O)N[C@H]4C[C@@H](O)[C@@H](O)NC(=O)[C@@H]5[C@@H](O)[C@@H](C)CN5C(=O)[C@H]([C@H](C)O)NC(=O)[C@H]([C@H](O)[C@@H](O)c5ccc(O)cc5)NC(=O)[C@@H]5C[C@@H](O)CN5C(=O)[C@H]([C@H](C)O)NC4=O)cc3)cc2)cc1 | MIC50 |  |  |  | 0.015 µg/mL |
| CC(C)=CCC/C(C)=C/CO | MIC99.9 | ATCC 90028 | broth dilution |  | >8000 µg/mL |
| C[C@H]1[C@@H](OC2CCC(O)CC2)O[C@@H]2O[C@]3(C)CC[C@H]4[C@H](C)CC[C@@H]1C24OO3 | EC50 | ATCC 90028 |  |  | >50 µg/mL |
| CCCCCCCCCCOCCC(=O)O | MIC |  |  |  | 500 µM |
| c1ccc2[nH]ccc2c1 | MIC99.9 | ATCC 90028 | broth dilution |  | 1000 µg/mL |
| C=C1[C@@H](OCCO)O[C@@H]2O[C@]3(C)CC[C@H]4[C@H](C)CC[C@@H]1C24OO3 | EC50 | ATCC 90028 |  |  | >50 µg/mL |

The last 4 rows once more:

{"compound": "C[C@H]1[C@@H](OC2CCC(O)CC2)O[C@@H]2O[C@]3(C)CC[C@H]4[C@H](C)CC[C@@H]1C24OO3", "endpoint": "EC50", "strain": "ATCC 90028", "value": ">50 µg/mL"}
{"compound": "CCCCCCCCCCOCCC(=O)O", "endpoint": "MIC", "value": "500 µM"}
{"compound": "c1ccc2[nH]ccc2c1", "endpoint": "MIC99.9", "strain": "ATCC 90028", "read by": "broth dilution", "value": "1000 µg/mL"}
{"compound": "C=C1[C@@H](OCCO)O[C@@H]2O[C@]3(C)CC[C@H]4[C@H](C)CC[C@@H]1C24OO3", "endpoint": "EC50", "strain": "ATCC 90028", "value": ">50 µg/mL"}